PubChem BioAssay AID1259414 – Drosophila RNAi Screening Center | 2018
In all, the deposit lists about 24,000 reagents; below is an unselected part of those that have a named target and a result. Of all reagents, about 1,210 (5%) are marked active. 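Inactive calls also include excluded dsRNAs with several or no targets, genes unexpressed in JW18, and well A1, regardless of score.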 Names joined by + are all predicted targets of the reagent. Reagent sequences are not shown.

Purpose: 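Genome-wide screen for host control of endosymbiont load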 (primary screen)
Cells: Drosophila JW18 cells infected with Wolbachia
Reagents: long dsRNA against Drosophila genes, 0.25 µg dsRNA per well of a 384-well plate
Time to read-out: 5 days
Challenge: cells persistently infected with Wolbachia before knock-down; no added drug
Read-out: 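Imaged fluorescence in situ signal for Wolbachia 23S rRNA per DAPI-counted host cell, given as a robust z-score within each plate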
Scale: Wolbachia per cell robust z: higher = more Wolbachia per host cell than the plate typical
Rule for the call: 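Hit when robust z is 1.5 or more, or -1.5 or less, in at least two of three replicates; excludes dsRNAs with several or no targets, genes not expressed in JW18 and well A1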

no.	target gene	amplicon	Wolbachia per cell robust z, rep 1	Wolbachia per cell robust z, rep 2	Wolbachia per cell robust z, rep 3	outcome
1	PIG-S + sud1	DRSC14643	-1.46	-2.68	-1.41	inactive
2	PIG-S + sud1	DRSC15952	-1.12	0.411	-1.28	inactive
3	rl	DRSC07833	0.208	-3.53	-1.2	inactive
4	rl	DRSC20742	0.0237	-0.779	0.435	inactive
5	rl	DRSC21814	-0.0197	-0.188	-0.363	inactive
6	CG33965	DRSC37791	-0.195	-1.49	0.686	inactive
7	CG9812	DRSC04566	0.144	-0.869	-0.696	inactive
8	CG42397	DRSC40606	0.093	-0.467	0.309	inactive
9	Dis3	DRSC16034	1.25	2.75	3.09	active
10	cN-IIIB	DRSC04359	-0.067	0.165	-2.49	inactive
11	cN-IIIB	DRSC41406	1.03	-0.494	0.148	inactive
12	CG9270	DRSC03182	-0.364	-0.464	1.12	inactive
13	CG31788	DRSC01630	1.16	-0.107	-0.0727	inactive
14	ClC-c	DRSC10499	0.105	0.628	-0.406	inactive
15	Ssadh	DRSC15621	1.18	1.78	-4.03	inactive
16	Ssadh	DRSC27782	-1.67	-0.462	-1.52	active
17	Rbcn-3B	DRSC18574	0.435	-0.972	-1.26	inactive
18	Gyc89Da	DRSC15008	-4.99	-0.454	-1.44	inactive
19	CG13766	DRSC02271	0.945	-3.79	-6.13	active
20	CG13766	DRSC29049	-1.38	-0.853	-0.362	inactive
21	CG14757	DRSC06492	1.09	-0.0221	0.0916	inactive
22	CG14757	DRSC25690	0.944	-2.9	-11.1	active
23	Ugt307A1	DRSC02138	-0.248	-1.51	-0.751	inactive
24	CG17195	DRSC15188	1.12	0.523	-5.12	inactive
25	CG17195	DRSC26415	0.22	-0.143	-1.28	inactive
26	CG13323	DRSC06360	0.123	0.286	0.932	inactive
27	CG6106	DRSC19971	-0.0657	-0.179	1.2	inactive
28	CG6106	DRSC29276	-1.12	0.289	-0.878	inactive
29	Rpn11	DRSC03422	1.94	2.85	0.839	active
30	CG14377 + CG14374	DRSC26405	1.69	-0.0379	-0.33	inactive
31	CG3223	DRSC15468	-0.489	0.126	-4.53	inactive
32	CG3223	DRSC28290	0.989	0.843	-0.113	inactive
33	Poxn	DRSC05589	0.0514	-0.00176	-0.00361	inactive
34	Poxn	DRSC07512	-3.44	-3.67	0.469	inactive
35	Poxn	DRSC23830	-0.584	-1.06	0.227	inactive
36	CG30432	DRSC04833	0.484	-0.776	-1.19	inactive
37	RpL22 + lncRNA:CR42491	DRSC25025	1.66	7.95	5.51	inactive
38	ab	DRSC01162	0.486	0.833	0.329	inactive
39	ab	DRSC23151	-0.234	-2.17	-1.09	inactive
40	ab	DRSC23179	0.307	1.13	0.328	inactive
41	ari-2	DRSC04672	0.31	-0.525	0.337	inactive
42	ari-2	DRSC27896	-5.08	-0.277	1.67	inactive
43	Lcp65Ad	DRSC11211	-6.44	0.309	0.0895	inactive
44	Lcp65Ad	DRSC24630	0.89	0.191	0.873	inactive
45	Rsbp15	DRSC14176	-1.74	-0.579	-0.264	inactive
46	Rsbp15	DRSC29051	0.782	1.17	0.17	inactive
47	CG1598	DRSC06598	-1.07	-1.01	-0.866	inactive
48	Gr43a	DRSC06658	1.33	0.524	1.05	inactive
49	aly	DRSC08707	0.222	0.517	0.783	inactive
50	aly	DRSC21784	-0.595	-2.11	-0.815	inactive
51	aly	DRSC39161	-0.284	0.405	-0.655	inactive
52	CG30015	DRSC05241	-1.28	-1.07	-0.549	inactive
53	CG30015	DRSC07027	0.849	0.452	-0.811	inactive
54	CG30015	DRSC07028	-0.281	-0.0499	-1.44	inactive
55	CG34457	DRSC06924	-0.833	-0.639	-2	inactive
56	CG15771	DRSC18077	-3.64	0.0347	0.492	inactive
57	scpr-B + scpr-A + scpr-C	DRSC26639	-0.628	0.182	0.131	inactive
58	CG43667 + CG43668 + CG43666	DRSC03829	-0.309	-0.693	-0.413	inactive
59	Vps29	DRSC00666	-0.216	-0.249	-10.7	inactive
60	Tango14	DRSC00667	-0.813	0.262	-2.17	inactive
61	Tango14	DRSC29882	0.267	-0.263	0.295	inactive
62	Herc4	DRSC08631	-0.199	-2.29	-0.555	inactive
63	CG7080	DRSC16193	0.0318	-0.386	0.202	inactive
64	CG7080	DRSC27850	0.827	0.893	-1.63	inactive
65	CG7607	DRSC10889	0.159	-1.03	-1.51	inactive
66	Cad74A	DRSC10636	0.347	-2.08	-0.103	inactive
67	CG4306	DRSC10409	1.06	1.02	1.06	inactive
68	CG4306	DRSC28986	-0.471	-2.01	-0.276	inactive
69	CG5245	DRSC15750	1.07	-0.00822	-0.996	inactive
70	CG5245	DRSC29337	-1.36	0.225	-6.77	inactive
71	bi	DRSC18742	-2.97	0.751	-0.104	inactive
72	bi	DRSC28848	-0.234	0.184	0.347	inactive
73	bi	DRSC38941	-0.785	-1.38	0.967	inactive
74	bi	DRSC40760	-0.00475	-0.23	0.573	inactive
75	GckIII	DRSC15729	-0.978	-0.269	-0.585	inactive
76	CG2641	DRSC15441	-0.0938	-1.09	-2.39	inactive
77	thetaTry	DRSC07705	-0.63	0.126	-0.852	inactive
78	thetaTry	DRSC29830	-0.23	0.068	0.325	inactive
79	Vps51	DRSC06519	-1.03	-1.56	-0.863	inactive
80	nrv2	DRSC00948	0.858	0.327	-1.45	inactive
81	nrv2	DRSC03383	-6.67	-0.822	-0.417	inactive
82	nrv2	DRSC40796	-2.85	-0.407	0.383	inactive
83	Hmgs	DRSC06866	0.619	0.374	1.02	inactive
84	Hmgs	DRSC28746	-0.0379	-1	-2.43	inactive
85	Mthfs	DRSC41340	0.336	-1.76	-0.297	inactive
86	msl-3	DRSC11371	0.0627	1.44	0.606	inactive
87	Sr-CI	DRSC00790	0.217	-1.75	-1.1	inactive
88	Sr-CI	DRSC23942	0.556	0.342	0.44	inactive

Called active, of those listed so far:
target gene	amplicon	Wolbachia per cell robust z, rep 1	Wolbachia per cell robust z, rep 2	Wolbachia per cell robust z, rep 3	outcome
Dis3	DRSC16034	1.25	2.75	3.09	active
Ssadh	DRSC27782	-1.67	-0.462	-1.52	active
CG13766	DRSC02271	0.945	-3.79	-6.13	active
CG14757	DRSC25690	0.944	-2.9	-11.1	active
Rpn11	DRSC03422	1.94	2.85	0.839	active
